A mixed list of measured activities; the numbers were collected in NIAID ChemDB.

Common to all: whole-cell or culture tests; organism: Candida parapsilosis

Blank or dashed fields: not listed here. ECn: concentration that inhibits the pathogen or its effect by n%. Conditions beyond the fields shown may differ between rows. A number after MIC or MFC names an inhibition level or a share of isolates.

SMILES | read by | endpoint | strain or isolate | result
O=c1[nH][nH]c2c1C(c1ccc(Cl)cc1)CC(c1ccc3ccccc3c1)=C2 | - | MIC | - | 6.25 µg/mL
CC(C)CC(C(=O)O)N1C(=O)CSC1c1ccccc1 | broth dilution | EC50 | - | 57.23 µM
c1ccc(C(c2ccccc2)n2ccnc2)cc1 | agar | MIC90 | - | 0.5 µg/mL
O/N=C\c1ccccc1O | - | MIC | - | 1800 µM
O=C(CCn1ccnc1)c1ccc(-c2ccccc2)cc1 | broth dilution | MIC | RTCC 1079 | 64 µg/mL
CC(C)c1ccc(S(=O)(=O)Nc2ccc(CN(C)CC(O)(Cn3cncn3)c3ccc(F)cc3F)cc2)cc1 | resazurin | MIC | CAPA2 | 0.18 µg/mL
Cc1coc2c1C(=O)[C@@H]1[C@](C)([C@H](O)CC[C@@]1(C)O)[C@@H]2O | broth dilution | MIC | ATCC 22019 | >256 µg/mL
N#Cc1ccc(/C=C2\SC(=O)N(CC(O)(Cn3nccn3)c3ccc(F)cc3F)C2=O)cc1 | - | MIC80 | CNCYP51 | 4.28 µg/mL
CN(Cc1ccc(S(=O)(=O)N2CCOCC2)cc1)CC(O)(Cn1cncn1)c1ccc(F)cc1F | resazurin | MIC | CAPA1 | 0.88 µg/mL
CC1CC(=O)N(c2ccccc2)C1=O | broth dilution / turbidity | MIC | CCC 124-2000 | 125 µg/mL
CC1=C2C3=C4[C@](C)([C@@H]5C[C@@H]5[C@@]4(O)C[C@@H]4[C@]35OC(=O)C3=C5C[C@H]5[C@](O)(COC(=O)/C(C)=C/COC(=O)CCC(=O)OC3)[C@H]3C[C@H]3[C@]45C)[C@@H](O)[C@]2(O)OC1=O | broth dilution | MIC | ATCC 22019 | >256 µg/mL
O=c1[nH][nH]c2c1C(c1ccc(F)cc1)CC(c1ccc3ccccc3c1)=C2 | - | MIC | - | 6.25 µg/mL
CCCNS(=O)(=O)c1ccc(CN(C)CC(O)(Cn2cncn2)c2ccc(F)cc2F)cc1 | resazurin | MIC | CAPA1 | 0.91 µg/mL
O=C(c1ccccc1)C(c1ccccc1)n1nnc2ccccc21 | broth dilution | MFC | - | >256 µg/mL
O=[N+]([O-])c1cccc(/C=N\O)c1 | - | MIC100 | - | 6020 µM
OC(CCn1ccnc1)c1cccc(C(O)c2ccc(Br)cc2)c1 | broth dilution | MIC | RTCC 1079 | >64 µg/mL
Clc1ccc(C(c2ccccc2)n2cnc3ccccc32)cc1 | agar | MIC90 | - | >256 µg/mL
Cc1ccc(C(O)c2cccc(C(=O)CCn3ccnc3)c2)cc1 | broth dilution | MIC | RTCC 1018 | >64 µg/mL
CN(Cc1ccc(NS(=O)(=O)c2ccccc2)cc1)CC(O)(Cn1cncn1)c1ccc(F)cc1F | resazurin | MIC | CAPA2 | 0.58 µg/mL
CC1C(=O)N(CCCc2ccccc2)C(=O)C1C | broth dilution / turbidity | MIC | CCC 124-2000 | 125 µg/mL
CN(C)c1ccc(/C=C2\SC(=O)N(CC(O)(Cn3nccn3)c3ccc(F)cc3F)C2=O)cc1 | - | MIC80 | CNCYP51 | 8.24 µg/mL
CCOc1ccc2nc3cc(N=C4NC(=O)/C(=C\c5ccc([N+](=O)[O-])cc5)S4)ccc3c(N)c2c1 | broth dilution | MIC | - | 750 µg/mL
O=C1S/C(=C\c2ccc(Cl)cc2)C(=O)N1CC(O)(Cn1nccn1)c1ccc(F)cc1F | - | MIC80 | CNCYP51 | 16.76 µg/mL
CCC(C)CC(C)CCCCCCCCC(=O)N[C@H]1C[C@@H](O)[C@H](NCCN)NC(=O)[C@@H]2[C@@H](O)CCN2C(=O)[C@H]([C@H](O)CCN)NC(=O)[C@H]([C@H](O)[C@@H](O)c2ccc(O)cc2)NC(=O)[C@@H]2C[C@@H](O)CN2C(=O)[C@H]([C@@H](C)O)NC1=O | broth dilution | MIC | 896/1 | 1 µg/mL
C=CCc1ccc(O)c(OC)c1 | turbidity | MIC90 | 218 | 485 µg/mL
CC1SC(c2ccccn2)N(C(C)C(=O)O)C1=O | broth dilution | EC50 | - | 98.25 µM
C[C@@H](c1ncncc1F)[C@](O)(Cn1cncn1)c1ccc(F)cc1F | broth dilution | MIC90 | - | 0.016 µg/mL
Cc1ccc(/C=C/C(=O)OC2CCN(CC(O)(Cn3cncn3)c3ccc(F)cc3F)CC2)cc1 | broth dilution | MIC80 | 0306392 | 0.13 µM
COc1ccccc1C1SCC(=O)N1CC(=O)O | broth dilution | EC50 | - | 79.49 µM
CCCCCCCCCCCCCCCC(=O)NC(CCCCN)C(=O)NC(CCCCN)C(N)=O | broth dilution | MIC | ATCC 4873 | 2 µg/mL
CO[C@@]12OC(=O)C(C)=C1C1=C3[C@](C)([C@@H]4C[C@@H]4[C@@]3(O)C[C@@H]3[C@]14OC(=O)C1=C4C[C@H]4[C@](O)(COC(=O)/C(C)=C/COC(=O)CCC(=O)OC1)[C@H]1C[C@H]1[C@]34C)[C@H]2O | broth dilution | MIC | ATCC 22019 | >256 µg/mL
CCCC(=O)OC1CCN(CC(O)(Cn2cncn2)c2ccc(F)cc2F)CC1 | broth dilution | MIC80 | 0306392 | 0.153 µM
O/N=C\c1cccs1 | - | MIC | - | 3930 µM
O=C(OC1CCN(CC(O)(Cn2cncn2)c2ccc(F)cc2F)CC1)C(F)(F)F | broth dilution | MIC80 | 0306392 | 9.214 µM
O=C1C(=O)c2ccccc2C2=C1CC(CI)O2 | broth dilution | MIC | Clinical isolate | 25.4 µg/mL
O=C(CC1=Nc2ccccc2C1)OC1CCN(CC(O)(Cn2cncn2)c2ccc(F)cc2F)CC1 | broth dilution | MIC80 | 0306392 | 0.032 µM
C[C@@H]1CC(=O)N(c2ccc(F)cc2)C1=O | broth dilution / turbidity | MIC | CCC 124-2000 | 31.3 µg/mL
Nc1ncccc1-c1cc(Cc2ccc(COc3ccccn3)cc2)no1 | broth dilution | MIC50 | - | <0.008 µg/mL
C[C@@H]1CC(=O)N(c2ccccc2)C1=O | broth dilution / turbidity | MIC | CCC 124-2000 | 62.5 µg/mL
O=C(/C=C/c1ccc(Cl)cc1)OC1CCN(CC(O)(Cn2cncn2)c2ccc(F)cc2F)CC1 | broth dilution | MIC80 | 0306392 | 0.124 µM
O=C1S/C(=C\c2ccc(F)cc2F)C(=O)N1CC(O)(Cn1nccn1)c1ccc(F)cc1F | - | MIC80 | CNCYP51 | 8.36 µg/mL
O=C(O)C(Cc1ccccc1)N1C(=O)CSC1c1c(Cl)cccc1Cl | broth dilution | EC50 | - | 13.54 µM
O=C(/C=C/c1ccc(Br)cc1)OC1CCN(CC(O)(Cn2cncn2)c2ccc(F)cc2F)CC1 | broth dilution | MIC80 | 0306392 | 0.458 µM
CC(C)c1ccc(NS(=O)(=O)c2ccc(CN(C)CC(O)(Cn3cncn3)c3ccc(F)cc3F)cc2)cc1 | resazurin | MIC | CAPA1 | 0.1 µg/mL
Clc1ccc(C(c2ccccc2)n2ccnc2)cc1 | agar | MIC90 | - | 8 µg/mL
C[C@H]1[C@H](O)[C@@H](C)/C=C/C=C/C=C/C=C/C=C/C=C/C=C/[C@H](O[C@@H]2O[C@H](C)[C@@H](O)[C@H](N)[C@@H]2O)C[C@@H]2O[C@](O)(C[C@@H](O)C[C@@H](O)CC[C@H](O)[C@@H](O)C[C@@H](O)CC(=O)O[C@H]1C)C[C@H](O)[C@H]2C(=O)O | broth dilution | MIC | 90018 | 0.06 µg/mL
O=c1[nH][nH]c2c1C(c1ccc(Br)cc1)CC(c1ccc3ccccc3c1)=C2 | - | MIC | - | 6.25 µg/mL
O=C1S/C(=C\c2ccc(F)cc2)C(=O)N1CC(O)(Cn1nccn1)c1ccc(F)cc1F | - | MIC80 | CNCYP51 | 0.54 µg/mL
O=C1c2ccccc2CC1Cn1ccnc1 | broth dilution | MIC | RTCC 1079 | 4 µg/mL
CCCCCCCC(=O)OC1CCN(CC(O)(Cn2cncn2)c2ccc(F)cc2F)CC1 | broth dilution | MIC80 | 0306392 | 0.139 µM
C[C@@H]1[C@H](O)[C@@H](C)/C=C/C=C/C=C/C=C/C=C/C=C/C=C/[C@H](O[C@@H]2O[C@H](C)[C@@H](O)[C@H](N)[C@@H]2O)C[C@@H]2O[C@](O)(C[C@@H](O)C[C@@H](O)[C@H](O)CC[C@@H](O)C[C@@H](O)CC(=O)O[C@H]1C)C[C@H](O)[C@H]2C(=O)O | MTT | MIC | ATCC 22019 | 1.5 µg/mL
O=C(CCn1ccnc1)c1cccc(C(O)c2ccc(Br)cc2)c1 | broth dilution | MIC | RTCC 1018 | 64 µg/mL
CC(C)(O)c1cn(-c2ccc(Cl)cc2)nn1 | broth dilution | MIC | URM 4889 | 64 µg/mL
O/N=C\c1ccc(F)cc1 | - | MIC100 | - | 3600 µM
CC(C(=O)O)N1C(=O)CSC1c1ccc(Cl)cc1 | broth dilution | EC50 | - | 79.61 µM
O=C(OC1CCN(CC(O)(Cn2cncn2)c2ccc(F)cc2F)CC1)C(F)(F)Cl | broth dilution | MIC80 | 0306392 | 35.5 µM
COc1ccccc1C1SCC(=O)N1C(Cc1ccccc1)C(=O)O | broth dilution | EC50 | - | 79.55 µM
O=C(Cc1ccccc1)OC1CCN(CC(O)(Cn2cncn2)c2ccc(F)cc2F)CC1 | broth dilution | MIC80 | 0306392 | 0.137 µM
COc1ccccc1C1SC(C)C(=O)N1C(Cc1ccccc1)C(=O)O | broth dilution | EC50 | - | 81.27 µM
O=[N+]([O-])c1ccc(/C=N\O)cc1 | - | MIC100 | - | 3010 µM
CN(Cc1ccc(S(=O)(=O)Nc2ccccc2)cc1)CC(O)(Cn1cncn1)c1ccc(F)cc1F | resazurin | MIC | CAPA2 | 0.12 µg/mL
CC1=C2C(=O)c3c(C)coc3C[C@@]2(C)[C@H](O)C[C@H]1O | broth dilution | MIC | ATCC 22019 | >256 µg/mL
C[C@@H]1CC(=O)N(CCCc2ccccc2)C1=O | broth dilution / turbidity | MIC | CCC 124-2000 | 125 µg/mL
COc1ccc(/C=N\O)cc1 | broth dilution | MFC | - | 3310 µM
O=C(O)CN1C(=O)CSC1c1c(Cl)cccc1Cl | broth dilution | EC50 | - | 75.33 µM

The last 4 rows once more:

SMILES	read by	endpoint	strain or isolate	result
CC1=C2C(=O)c3c(C)coc3C[C@@]2(C)[C@H](O)C[C@H]1O	broth dilution	MIC	ATCC 22019	>256 µg/mL
C[C@@H]1CC(=O)N(CCCc2ccccc2)C1=O	broth dilution / turbidity	MIC	CCC 124-2000	125 µg/mL
COc1ccc(/C=N\O)cc1	broth dilution	MFC	-	3310 µM
O=C(O)CN1C(=O)CSC1c1c(Cl)cccc1Cl	broth dilution	EC50	-	75.33 µM